Measured values from several laboratories, pooled; numbers as filed in NIAID ChemDB.

All rows: cytotoxicity tests; cells: THP-1; measure: CC50

Lines come from different laboratories, so protocols vary. CCn: concentration that lowers growth or viability of the cells by n%. An empty or dashed field is not shown.

compound | method | value
O=C(COc1ncnc2sccc12)N/N=C/c1ccccc1[N+](=O)[O-] | MTT / absorbance | 2420 µM
CC1(C)CC2=C(O1)C(=O)C=C(Br)C2=O |  | 0.053 µM
CCSc1n[nH]c(-c2cccc([N+](=O)[O-])c2C)n1 |  | >100 µg/mL
FC(F)(F)c1ccc(-c2nc(=S)[nH][nH]2)cc1 | MTT | 65.68 µg/mL
COc1cc(/C=N/NC(=O)COc2ncnc3sccc23)cc(OC)c1OC | MTT / absorbance | 2020 µM
CCSc1n[nH]c(-c2cccc(C(F)(F)F)c2)n1 |  | 57.4 µg/mL
CN(C)c1ccc(/C=N/NC(=O)COc2ncnc3sccc23)cc1 | MTT / absorbance | 2490 µM
Cc1cc(Cl)ccc1-c1nc(=S)[nH][nH]1 | MTT | 98.12 µg/mL
O=C(Nc1cccc(C(F)(F)F)c1)c1c(O)ccc2ccccc12 |  | >20 µM
O=[N+]([O-])c1cc(F)c(Cl)c2sc(/N=C3/CC(c4ccc(O)cc4)N(c4nc5ccc(F)c(Cl)c5s4)N3)nc12 | MTT | 432.5 µg/mL
C#CCSc1n[nH]c(-c2ccc(C(F)(F)F)cc2)n1 |  | >100 µg/mL
C#CCS(=O)(=O)c1nc(-c2ccc([N+](=O)[O-])c(C(F)(F)F)c2)n[nH]1 | MTT | >100 µg/mL
COC(=O)c1cc2c(s1)C(=O)C=CC2=O |  | 0.052 µM
Cc1ccc(Cl)cc1-c1nc(=S)[nH][nH]1 | MTT | 90.61 µg/mL
COc1ccc(N(Cc2c(Cl)cccc2Cl)S(=O)(=O)c2cccc(C#N)c2)cc1C(=O)O | absorbance | >33 µM
COc1cc(C2C/C(=N/c3nc4ccc(F)c(Cl)c4s3)NN2c2nc3ccccc3s2)ccc1O | MTT | 423.5 µg/mL
O=C(c1ccc2ccccc2c1)N1CCCC1 | WST | >100 µM
CCCCOC(=O)c1cc([N+](=O)[O-])cc(C(F)(F)F)c1 |  | 552 µg/mL
C#CCSc1n[nH]c(-c2cccc(C(F)(F)F)c2)n1 | MTT | >100 µg/mL
CC1(C)CC2=C(O1)C(=O)C=CC2=O |  | 0.123 µM
COc1ccc(OC)c2[nH]c(C(=O)O)cc12 |  | 0.011 µM
Cc1cc2c(o1)C(=O)c1cc3ncsc3cc1C2=O |  | 1.466 µM
COc1ccnc(NC(=O)NS(=O)(=O)c2cc(NC(=O)CCl)ccc2Cl)n1 | MTT | 179.7 µg/mL
C#CCSc1n[nH]c(-c2ccc([N+](=O)[O-])c(C(F)(F)F)c2)n1 | MTT | >100 µg/mL
CC(C)(C)OC(=O)NCCn1ccc2c1C(=O)C=CC2=O |  | 0.081 µM
C#CCSc1n[nH]c(-c2ccco2)n1 |  | >100 µg/mL
O=[N+]([O-])c1cc2nc(/N=C3/CC(c4ccc(O)cc4)N(c4nc5ccc(F)c(Cl)c5s4)N3)sc2c(Cl)c1F | MTT | 192 µg/mL
CCOC(=O)c1cc2c(OC)ccc(OC)c2[nH]1 |  | 0.096 µM
Fc1ccc(-c2n[nH]c(=S)s2)cc1 | MTT | >100 µg/mL

A second listing of 4 rows from above:

compound,method,value
CN(C)c1ccc(/C=N/NC(=O)COc2ncnc3sccc23)cc1,MTT / absorbance,2490 µM
Cc1cc(Cl)ccc1-c1nc(=S)[nH][nH]1,MTT,98.12 µg/mL
Fc1ccc(-c2n[nH]c(=S)s2)cc1,MTT,>100 µg/mL
COc1ccc(OC)c2[nH]c(C(=O)O)cc12,,0.011 µM